Values joined by “and” are separate entries in the source; they are usually repeats but may differ in a detail not shown here. Identical values can stand only once. Like-named read-outs stand apart in the source and are kept apart here.

This note sets out measurements from patent US12076390 (Dana-Farber, dated 2024).

Assay [1] concerns the target T1, H3-BR07 protein (recombinant HA of H3 A/Brisbane/10/07) (influenza A virus A/Brisbane/10/07 …).
Assay [2] has as its target T1, H3-BR07 protein (recombinant HA of H3 …). This is another data set of the same source.
Assay [3] shares this target. The source holds these as a separate data set.
Assay [4] shares this target. This is another data set of the same source.
In assay [5] the target is T2, Recombinant full length HA of H5 A/Vietnam/1203/04 (H5-VN04) (influenza A virus A/Vietnam/1203/04 …). The assay can be described thus: BLI (Octet RED96), IgG1, recombinant HA. A general note: Biolayer interferometry detects binding as a change in optical thickness at a sensor tip.
Assay [6] concerns the target T2, Recombinant full length HA of H5 ….
The target in assay [7] is Recombinant full length HA of H5 A/Indonesia/05/05 (H5-IN05) (influenza A virus A/Indonesia/05/05 (H5)). The assay can be described thus: recombinant HA; footnote says SPR biosensor, methods describe BLI. A general note: In SPR one partner is held on a chip, and binding of the other changes the refractive index at the surface.
Assay [8] has as its target Recombinant full length HA of H9 A/Hong Kong/1073/99 (H9-HK99) (influenza A virus A/Hong Kong/1073/99 …). The assay is described as above.
Assay [9] concerns the target T3, Recombinant full length HA of H3 A/Perth/16/09 (H3-PE09) (influenza A virus A/Perth/16/09 (H3N2)). Described as above.
Assay [10] concerns the target Recombinant full length HA of H7 A/Anhui/1/13 (H7-AH13) (influenza A virus A/Anhui/1/13 (H7N9)). The assay is described as above.
The target of assay [11] is Recombinant full length HA of H3 A/Victoria/341/11 (H3-VIC11) (influenza A virus A/Victoria/341/11 (H3)). The assay is described as above.
Assay [12] has as its target Recombinant full length HA of H3 A/Uruguay/716/07 (H3-UY07) (influenza A virus A/Uruguay/716/07 (H3)). The assay is described as above.
In assay [13] the target is T3, Recombinant full length HA of H3 ….

B1: 3I14 Fab (Fab, V domains shown)
VH: QVQLLESGGGVVQPGRSLRLSCAASGFTFSNYGMHWVRQAPGKGLEWVAIISFDGSKKYYANSVKGRSTISRDNSKNTLSLQMNSLGPEDTALYYCAKLPSPYYFDSRFVWVAASAFHFWGQGILVTVSS
VL: NFMLTQPPSASGTPGQRVTISCSGSSSNIGGNTVHWFQQLPGTAPKLLIYTNSLRPSGVPDRFSGSKSGTSASLAISGLQSEDEADYYCAAWDDSLNGQVFGGGTKLTVL
B1: the “IC50 (read off the curve)” value is ~5 nM and ~7 nM in assay [1]; about 7 nM in assay [2]; about 5 nM in assay [3]; about 4 nM in [4].

B2: 3I14 VLD94N IgG1 (antibody, V domains shown)
VH: QVQLLESGGGVVQPGRSLRLSCAASGFTFSNYGMHWVRQAPGKGLEWVAIISFDGSKKYYANSVKGRSTISRDNSKNTLSLQMNSLGPEDTALYYCAKLPSPYYFDSRFVWVAASAFHFWGQGILVTVSS
VL: NFMLTQPPSASGTPGQRVTISCSGSSSNIGGNTVHWFQQLPGTAPKLLIYTNSLRPSGVPDRFSGSKSGTSASLAISGLQSEDEADYYCAAWDNSLNGQVFGGGTKLTVL
In the case of B2, the koff was 7.74e-05 s⁻¹ in [5] and 1.26e-05 s⁻¹ in [6]. Besides, the values for the kon in [5] and in [6] were 383000 M⁻¹ s⁻¹ and 67200 M⁻¹ s⁻¹, respectively.

B3: 3I14 IgG1 (antibody, V domains shown)
VH: QVQLLESGGGVVQPGRSLRLSCAASGFTFSNYGMHWVRQAPGKGLEWVAIISFDGSKKYYANSVKGRSTISRDNSKNTLSLQMNSLGPEDTALYYCAKLPSPYYFDSRFVWVAASAFHFWGQGILVTVSS
VL: NFMLTQPPSASGTPGQRVTISCSGSSSNIGGNTVHWFQQLPGTAPKLLIYTNSLRPSGVPDRFSGSKSGTSASLAISGLQSEDEADYYCAAWDDSLNGQVFGGGTKLTVL
With B3, the Kd is 1.05 nM in [7]; 5.23 nM in assay [8]; 0.26 nM in assay [9]; 0.67 nM in assay [10]; 0.33 nM in assay [11]; 0.18 nM in assay [12]. In addition, in assay [13], the koff was found to be 0.000127 s⁻¹. In assay [13], the kon was 64700 M⁻¹ s⁻¹.

As usually defined, the koff is a measure of how fast the partners let go of each other. Broadly, the kon is the second-order rate constant of association. As a reminder, the Kd is the constant that tells how readily two partners part at equilibrium.
